For assay [1], the target named is α3β4 subtype of rat neuronal nAChR (Rattus norvegicus, UniProt P04757+P12392).
The target of assay [2] is adult mouse muscle nAChR subtype (α1β1εδ) (Mus musculus, UniProt P02716+P04756+P20782). In words: nAChR assay, voltage clamp of Xenopus oocytes expressing adult muscle subtype. The conditions noted are these: for IC50: read-out: IC50 on α1β1εδ subtype of nAChR, SAR study, dose-response plots FIG. 15; for activity relative to pl14a: 10 μM, both folding isomers. In kind it is cell-based.

The chains behind the UniProt entries cited, without tags or fusion partners. Where a name states a change or a piece, a line headed by the entry shows the natural chain unless it says otherwise. Residues count along the entry.
UniProt P04757, 26-499 limits assumed: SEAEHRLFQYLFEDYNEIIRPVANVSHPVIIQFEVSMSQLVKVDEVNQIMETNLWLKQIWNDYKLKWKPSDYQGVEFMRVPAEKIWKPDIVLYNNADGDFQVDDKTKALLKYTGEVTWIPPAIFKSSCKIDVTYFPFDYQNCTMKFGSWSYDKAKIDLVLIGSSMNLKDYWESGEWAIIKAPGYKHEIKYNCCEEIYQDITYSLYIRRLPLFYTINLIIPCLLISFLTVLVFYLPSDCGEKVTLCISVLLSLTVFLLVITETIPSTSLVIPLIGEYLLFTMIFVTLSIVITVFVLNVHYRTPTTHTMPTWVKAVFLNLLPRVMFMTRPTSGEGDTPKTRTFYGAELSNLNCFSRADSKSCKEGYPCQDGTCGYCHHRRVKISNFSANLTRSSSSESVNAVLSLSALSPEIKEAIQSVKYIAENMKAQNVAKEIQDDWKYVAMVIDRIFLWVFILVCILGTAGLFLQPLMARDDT
UniProt P12392, 21-495 limits assumed: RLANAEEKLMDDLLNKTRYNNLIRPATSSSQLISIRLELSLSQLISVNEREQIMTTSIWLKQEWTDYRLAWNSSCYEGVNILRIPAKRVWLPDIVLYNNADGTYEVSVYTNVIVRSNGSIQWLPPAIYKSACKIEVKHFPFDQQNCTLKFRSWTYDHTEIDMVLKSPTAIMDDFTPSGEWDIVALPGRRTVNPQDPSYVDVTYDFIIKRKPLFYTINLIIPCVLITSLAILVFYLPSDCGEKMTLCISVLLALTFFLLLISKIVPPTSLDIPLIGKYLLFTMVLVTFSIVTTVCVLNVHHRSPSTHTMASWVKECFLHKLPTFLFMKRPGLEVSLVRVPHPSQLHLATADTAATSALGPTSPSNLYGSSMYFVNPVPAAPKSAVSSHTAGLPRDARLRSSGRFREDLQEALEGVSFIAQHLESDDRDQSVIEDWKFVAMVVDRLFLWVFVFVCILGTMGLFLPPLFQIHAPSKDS
UniProt P02716: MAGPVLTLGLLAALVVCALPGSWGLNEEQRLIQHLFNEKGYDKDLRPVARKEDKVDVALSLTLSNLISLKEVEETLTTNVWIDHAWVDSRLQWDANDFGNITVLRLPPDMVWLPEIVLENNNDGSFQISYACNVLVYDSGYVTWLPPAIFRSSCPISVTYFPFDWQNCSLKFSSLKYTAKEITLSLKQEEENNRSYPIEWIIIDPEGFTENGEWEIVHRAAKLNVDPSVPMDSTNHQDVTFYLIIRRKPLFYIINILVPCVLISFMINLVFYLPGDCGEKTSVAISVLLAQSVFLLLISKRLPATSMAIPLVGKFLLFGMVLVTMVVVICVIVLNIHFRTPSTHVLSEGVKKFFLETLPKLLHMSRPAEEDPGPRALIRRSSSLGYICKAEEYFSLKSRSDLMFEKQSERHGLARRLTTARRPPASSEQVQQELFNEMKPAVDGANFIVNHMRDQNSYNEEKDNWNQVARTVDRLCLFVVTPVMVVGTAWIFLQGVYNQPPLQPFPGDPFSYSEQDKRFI
UniProt P04756: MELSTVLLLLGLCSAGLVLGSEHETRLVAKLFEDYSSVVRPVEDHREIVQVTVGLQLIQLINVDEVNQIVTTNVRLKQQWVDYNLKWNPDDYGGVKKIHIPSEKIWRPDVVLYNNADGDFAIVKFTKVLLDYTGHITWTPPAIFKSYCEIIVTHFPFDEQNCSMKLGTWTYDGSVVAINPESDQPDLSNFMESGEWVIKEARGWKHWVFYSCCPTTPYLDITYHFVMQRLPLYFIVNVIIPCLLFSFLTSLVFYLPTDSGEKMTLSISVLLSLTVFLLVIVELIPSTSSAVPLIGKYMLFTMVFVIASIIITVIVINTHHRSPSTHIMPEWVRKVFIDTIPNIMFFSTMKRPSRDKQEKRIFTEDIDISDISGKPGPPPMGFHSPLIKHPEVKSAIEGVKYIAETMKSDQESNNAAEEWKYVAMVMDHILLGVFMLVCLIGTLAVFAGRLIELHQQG
UniProt P20782: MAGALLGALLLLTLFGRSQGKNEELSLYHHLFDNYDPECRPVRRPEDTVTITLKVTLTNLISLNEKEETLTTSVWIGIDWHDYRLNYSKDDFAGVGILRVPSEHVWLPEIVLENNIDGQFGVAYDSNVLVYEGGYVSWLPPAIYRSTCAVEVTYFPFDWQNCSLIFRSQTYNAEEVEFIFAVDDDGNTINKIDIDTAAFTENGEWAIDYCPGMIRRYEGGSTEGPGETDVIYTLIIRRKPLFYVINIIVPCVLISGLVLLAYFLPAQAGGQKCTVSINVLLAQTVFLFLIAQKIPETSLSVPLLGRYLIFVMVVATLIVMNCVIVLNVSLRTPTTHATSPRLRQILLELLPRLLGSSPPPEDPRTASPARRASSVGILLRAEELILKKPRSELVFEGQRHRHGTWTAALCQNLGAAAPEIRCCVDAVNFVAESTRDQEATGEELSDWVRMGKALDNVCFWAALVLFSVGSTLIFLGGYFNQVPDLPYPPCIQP
UniProt P17658, whole entry, looked up: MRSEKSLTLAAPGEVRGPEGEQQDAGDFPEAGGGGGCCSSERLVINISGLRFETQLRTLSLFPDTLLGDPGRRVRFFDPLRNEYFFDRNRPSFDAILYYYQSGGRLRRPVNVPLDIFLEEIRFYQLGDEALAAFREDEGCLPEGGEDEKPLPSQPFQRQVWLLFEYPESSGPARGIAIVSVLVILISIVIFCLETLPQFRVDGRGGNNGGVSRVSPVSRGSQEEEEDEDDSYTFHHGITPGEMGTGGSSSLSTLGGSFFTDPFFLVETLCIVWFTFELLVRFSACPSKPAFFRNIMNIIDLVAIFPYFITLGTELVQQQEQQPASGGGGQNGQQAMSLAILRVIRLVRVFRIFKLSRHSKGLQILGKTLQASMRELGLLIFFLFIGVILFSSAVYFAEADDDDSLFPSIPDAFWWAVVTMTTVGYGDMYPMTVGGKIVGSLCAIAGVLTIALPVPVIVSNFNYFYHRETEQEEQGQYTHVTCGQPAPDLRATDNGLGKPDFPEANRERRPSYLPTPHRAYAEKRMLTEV

The target of the next assay is Kv1.6 channel (Homo sapiens, UniProt P17658).

We go through 8 molecules from patent US9062118B2 (priority 2006, dated 2015).

On to `CC[C@H](C)[C@@H]1NC(=O)CNC(=O)[C@H](C)NC(=O)[C@H](C)NC(=O)[C@@H]2CSSC[C@@H](C(=O)N[C@@H](CCCNC(=N)N)C(N)=O)NC(=O)[C@H](Cc3c[nH]cn3)NC(=O)[C@H](CSSC[C@H](NC(=O)[C@@H](NC(=O)[C@H](CCCNC(=N)N)NC(=O)[C@@H]3CCCN3C(=O)[C@H](CCCNC(=N)N)NC(=O)[C@@H]3CCCN3C(=O)[C@@H](N)Cc3ccccc3)[C@@H](C)CC)C(=O)N[C@@H](CC(N)=O)C(=O)N[C@@H](CC(C)C)C(=O)N[C@@H](C)C(=O)N2)NC(=O)[C@H](Cc2ccccc2)NC(=O)[C@@H]2CCCN2C(=O)[C@H](Cc2ccc(O)cc2)NC(=O)[C@H](CCCCN)NC(=O)[C@H](Cc2c[nH]cn2)NC(=O)CNC1=O`, for which the IC50 in assay [1] is 3.21 µM; in assay [2], 0.355 µM; at Kv1.6 channel it was 6.54 µM.
With `CC[C@H](C)[C@@H]1NC(=O)CNC(=O)[C@H](C)NC(=O)[C@H](CCCNC(=N)N)NC(=O)[C@@H]2CSSC[C@@H](C(=O)N[C@@H](CCCNC(=N)N)C(N)=O)NC(=O)[C@H](Cc3c[nH]cn3)NC(=O)[C@H](CSSC[C@H](NC(=O)[C@@H](NC(=O)[C@H](CCCNC(=N)N)NC(=O)[C@@H]3CCCN3C(=O)[C@H](CCCNC(=N)N)NC(=O)[C@@H]3CCCN3C(=O)[C@@H](N)Cc3ccccc3)[C@@H](C)CC)C(=O)N[C@@H](CC(N)=O)C(=O)N[C@@H](CC(C)C)C(=O)N[C@@H](C)C(=O)N2)NC(=O)[C@H](Cc2ccccc2)NC(=O)[C@@H]2CCCN2C(=O)[C@H](Cc2ccc(O)cc2)NC(=O)[C@H](CCCCN)NC(=O)[C@H](C)NC(=O)CNC1=O`, the IC50 in assay [1] came out at 3.92 µM; in assay [2] it was 0.228 µM; on Kv1.6 channel it was 4.6 µM.
As for `CC[C@H](C)[C@@H]1NC(=O)CNC(=O)[C@H](C)NC(=O)[C@H](CCCNC(=N)N)NC(=O)[C@@H]2CSSC[C@@H](C(=O)N[C@@H](CCCNC(=N)N)C(N)=O)NC(=O)[C@H](Cc3c[nH]cn3)NC(=O)[C@H](CSSC[C@H](NC(=O)[C@@H](NC(=O)[C@H](CCCNC(=N)N)NC(=O)[C@@H]3CCCN3C(=O)[C@H](CCCNC(=N)N)NC(=O)[C@@H]3CCCN3C(=O)[C@@H](N)Cc3ccccc3)[C@@H](C)CC)C(=O)N[C@@H](CC(N)=O)C(=O)N[C@@H](CC(C)C)C(=O)N[C@@H](C)C(=O)N2)NC(=O)[C@H](C)NC(=O)[C@@H]2CCCN2C(=O)[C@H](Cc2ccc(O)cc2)NC(=O)[C@H](CCCCN)NC(=O)[C@H](Cc2c[nH]cn2)NC(=O)CNC1=O`, the IC50 in assay [1] amounted to 2.85 µM; in assay [2], 0.257 µM; on Kv1.6 channel it was 2.41 µM.
Regarding CNLACRAGIGHKYPFCHC, the “activity relative to pl14a” value in assay [2] is recorded as “as active as pl14a”.
Take `CC[C@H](C)[C@H](NC(=O)[C@H](CCCNC(=N)N)NC(=O)[C@@H]1CCCN1C(=O)[C@H](CCCNC(=N)N)NC(=O)[C@@H]1CCCN1C(=O)[C@@H](N)Cc1ccccc1)C(=O)N[C@H]1CSSC[C@@H]2NC(=O)[C@H](Cc3ccccc3)NC(=O)[C@@H]3CCCN3C(=O)[C@H](Cc3ccc(O)cc3)NC(=O)[C@H](CCCCN)NC(=O)[C@H](Cc3c[nH]cn3)NC(=O)CNC(=O)[C@H](C)NC(=O)CNC(=O)[C@H](C)NC(=O)[C@H](CCCNC(=N)N)NC(=O)[C@H](CSSC[C@@H](C(=O)N[C@@H](CCCNC(=N)N)C(N)=O)NC(=O)[C@H](Cc3c[nH]cn3)NC2=O)NC(=O)[C@H](C)NC(=O)[C@H](CC(C)C)NC(=O)[C@H](CC(N)=O)NC1=O`: the IC50 worked out at 1.6 µM in assay [1], 0.175 µM in assay [2] and 45.5 µM at Kv1.6 channel.
The corresponding values for `CC[C@H](C)[C@@H]1NC(=O)CNC(=O)[C@H](C)NC(=O)[C@H](CCCNC(=N)N)NC(=O)[C@@H]2CSSC[C@@H](C(=O)N[C@@H](CCCNC(=N)N)C(N)=O)NC(=O)[C@H](Cc3c[nH]cn3)NC(=O)[C@H](CSSC[C@H](NC(=O)[C@@H](NC(=O)[C@H](CCCNC(=N)N)NC(=O)[C@@H]3CCCN3C(=O)[C@H](CCCNC(=N)N)NC(=O)[C@@H]3CCCN3C(=O)[C@@H](N)Cc3ccccc3)[C@@H](C)CC)C(=O)N[C@@H](CC(N)=O)C(=O)N[C@@H](C)C(=O)N[C@@H](C)C(=O)N2)NC(=O)[C@H](Cc2ccccc2)NC(=O)[C@@H]2CCCN2C(=O)[C@H](Cc2ccc(O)cc2)NC(=O)[C@H](CCCCN)NC(=O)[C@H](Cc2c[nH]cn2)NC(=O)CNC1=O` are 1.36 µM, 0.434 µM and 2.26 µM.
With `CC[C@H](C)[C@@H]1NC(=O)CNC(=O)[C@H](C)NC(=O)[C@H](CCCNC(=N)N)NC(=O)[C@@H]2CSSC[C@@H](C(=O)N[C@@H](CCCNC(=N)N)C(N)=O)NC(=O)[C@H](Cc3c[nH]cn3)NC(=O)[C@H](CSSC[C@H](NC(=O)[C@@H](NC(=O)[C@H](CCCNC(=N)N)NC(=O)[C@@H]3CCCN3C(=O)[C@H](CCCNC(=N)N)NC(=O)[C@@H]3CCCN3C(=O)[C@@H](N)Cc3ccccc3)[C@@H](C)CC)C(=O)N[C@@H](CC(N)=O)C(=O)N[C@@H](CC(C)C)C(=O)N[C@@H](C)C(=O)N2)NC(=O)[C@H](Cc2ccccc2)NC(=O)[C@H](C)NC(=O)[C@H](Cc2ccc(O)cc2)NC(=O)[C@H](CCCCN)NC(=O)[C@H](Cc2c[nH]cn2)NC(=O)CNC1=O`, the IC50 in assay [1] came out at 0.71 µM; in assay [2] it was 0.24 µM; on Kv1.6 channel, 2.22 µM.
Turning to CNLACRAGIGHKYPFCHCR, the “activity relative to pl14a” value in assay [2] is recorded as “as active as pl14a”.
